Measurements taken from US20260069689A1, “ANTI-SARS-COV-2-SPIKE GLYCOPROTEIN ANTIBODIES AND ANTIGEN-BINDING FRAGMENTS” (Regeneron, published 2026).
Residue numbers refer to the chain shown, from its start.

B1: mAb14247 (antibody, V domains shown)
VH: QITLKESGPTLVKPTQTLTLTCTFSGFSLSTSAVGVGWIRQPPGKALEWLALIYWDDDKRYSPSLKSRLTITKDTSKNQLVLTMTNVDPVDTATYYCAHHTIQLIFDYWGQGTLVTVSS
VL: QSALTQPASVSGSPGQSITISCTATSSDVGNYNYVSWYQQHPGKAPKLMIYEVSNRPSGVSNRFSGSKSGNTASLTISGLQAEDEADYYCSSYTSSSTPLVFGGGTKLTVLG
B2: mAb14283 (antibody, V domains shown)
VH: QVQLQESGPGLVKPSGTLSLTCDVSGGSISSNNWWSWVRQRPGKGLQWIGEIYHNENTNYNPSLKSRVIMSIDKSKNQFSLKLTSVTAADTAVYYCARGDVLDWFDPWGQGTLVTVSS
VL: QSALTQPASVSGSPGQSTTISCTGTSSDVGGYNYVSWYQQYPGKAPKLMIYDVTNRPSGVSHRFSGSKSGNTASLTISGLQAEDEADYYCSSYTSSSTVIFGGGTKLTVLG
B3: mAb14286 (antibody, V domains shown)
VH: QVQLVQSGAEVKKPGASVKVSCKASGYTFTDYFIHWVRQAPGQGLEWMGWINPTSGGTNYAQKFRGRVTMTRDTSISTAYVELSRLRSDDTALYYCARDLPFYSDTKQFDYWGQGTLVTVSS
VL: B2 VL with S13Y, T18I, Y41H, Y51F, T54S, H62N, I77F, V99L, I100V
B4: mAb14260 (antibody, V domains shown)
VH: EVQLVESGGGLVQPGGSLRLSCAASGFTFSIYEMNWVRQAPGKGLEWVSYITSSGFTIYYADSVKGRFTISRDNAKNSLYLQMHSLRAEDTAVYYCATSSSSGYYFDYWGQGTLVTVSS
VL: not shown
B5: mAb14260 (antibody, V domains shown)
VH: B4 VH
VL: not shown
B6: mAb14313 (antibody, V domains shown)
VH: EVQLVESGGGLVQPGRSLRLSCVASGFTFDDSAMHWVRQPPGKGLEWVSGISWNSGIIGYAESVKGRFIISRDNAKNSLFLHMRGLRPEDTAVYYCARDRLELSYYYYGMDVWGQGTTVTVSS
VL: QSVLTQPPSASGTPGQRVTISCSGSSSNIGSNTVNWYQQFPGTAPRLLIYSNDQRPSGIPDRFSGSKSGTSASLAISGLQSEDEADYYCSTWDDSLNGAVFGGGTQLTVLG
B7: mAb14258 (antibody, V domains shown)
VH: QLQLQESGPGLVKPSETLSLICTGSGDSISSSHYYWGWIRQPPGKGLEWIGSTYFSGSTYYNPSLKSRVSISVDTSKNQVSLKLISVTAADTAVYYCAREMGATLGDYWGPGTLVTVSS
VL: QSVLTQPPSASGTPGQRVTISCSGSSSNIGNNYVYWYQQFPGTTPRLLIYRNNERPSGVPDRFSGSKSGTSASLVISGLRSEDEADYYCAAWDDSLSAHYVFGTGTKVTVLG
B8: mAb14258 (antibody, V domains shown)
VH: B7 VH
VL: B7 VL
B9: mAb15150 (antibody, V domains shown)
VH: EVQLVETGGGLIQPGGSLRLSCAAPGFIVSSNYMSWVRQAPGKGLEWVSLLYPGGSTYYADSVKGRFTISRDNSKNTLYLQMNSLRADDTAVYYCARVLPIVEDHFDYWGQGTLVTVSS
VL: DIQLTQSPSFLSASVGDRVTITCRASQGMSSYLAWYQKKPGKAPKLLIYGATILQSGVPSRFSGSGSGTEFTLTISSLQPEDFATYYCQQLNSDPLYMYTFGQGTKLEIKR
B10: mAb14312 (antibody, V domains shown)
VH: EVQLVESGGGLVQPGGSLRLSCAASGFTVSRSYMTWVRQAPGKGLEWVSVIFTGGRTDHADSVKGRFTISRHNSKNTLYLQMNSLRTEDTAVYYCARVAIVGATGAFDIWGQGTMVTVSS
VL: QSVLTQPPSVSGAPGQRVTISCTGSSSNIGAGDDVHWYQQLPGTAPKLLIYGNSNRPSGVPDRFSGSKSGTSASLAITGLQAEDEADYYCQSYDSSLSGSVVFGGGTKLTVLG
B11: mAb14257 (antibody, V domains shown)
VH: B10 VH with T35N, I51V, R56T, D58K, A60T, H72D, K75M, T87P, G102E, A103T
VL: B10 VL with S25T, G32D, D33F, L41F, N53H, S54T, V60I
B12: mAb14294 (antibody, V domains shown)
VH: EVQLVESGGGLVQPGGSLRLSCAASGFTFSNHWMDWVRQAPGKGLVWVSRINSDGSSTDYADSVRGRFTMSRDNAKNTLYLQMSSLRAEDTAVYYCAREGMIFGAVIIPGWYFDLWGRGALVTVSS
VL: EIVLTQSPGTLSLSPGERATLSCRASQSVSSSQLAWYQQKPGQAPRLLIYGASSRATGIPDRFSGSGSGTDFTLTISRLEPEDFAVYYCQQYDSFGQGTKLEIKR
B13: mAb14315 (antibody, V domains shown)
VH: QVQLVQSGAEVKKPGSSVKVSCKASGDTFSTYAINWVRQAPGQGLEWMGRFIHIFGTANYAQKFQGRVTITADESTSTAYMELRSLRSEDTAVYYCARDGVDYGDYRPDYWGQGTLVTVSS
VL: EIVLTQSPGTLSLSPGERATLSCRASQSVSSNYLAWYQQKPGQAPRLLIYGASSRATGIPERFSGSGSGTDFTLTISRLEPEDFAVYYCQQYGSSLYTFGQGTKLEIKR
B14: mAb14284 (antibody, V domains shown)
VH: QITLKESGPTLVKPTQTLTLTCTFSGFSFSTSGVGVGWIRQPPGKTLEWLALIYWDDDKRYSPSLKSRLTITKDTSKNQVVLTMTNMDPVDTATYFCAHHGIPTIFGYWGQGALVTVSS
VL: QSALTQPASVSGSPGQSITISCTGTSSDLGVFNYVSWYQQHPGKAPKLMIYEVTNRPSGVSNRFSGSKSGNTASLTISGLQAEDEADYYCSSYTTSSTVFGGGTKLTVLG
B15: mAb14235 (antibody, V domains shown)
VH: QITLKESGPTLVKPTQTLTLTCTFSGFSLNTGGVGVGWIRQPPGNALEWLALIYWDDDKRYNPSLKTRLTISKDTSKNQVVLTMTNMDPVDTATYFCAHLTIAVIVDFWGQGTLVTVSS
VL: B14 VL with G24A, L29V, V31T, F32Y, Y38F, Q40H, S96T, T98I
B16: mAb14284 (antibody, V domains shown)
VH: B14 VH
VL: B14 VL
B17: mAb14255 (antibody, V domains shown)
VH: QVQLQESGPGLVKPSETLSLTCTVSGGSISGYYWSWIRQPPGKGLDWIGYIYYRGNTNYNPSLKSRVTISVDTSNNQFSLKLSSVTAADTAVYYCARYGEGYGDASGYHFDYWGQGTLVTVSS
VL: QSALTQPASVSGSPGQSITISCTGTSSDVGSYNLVSWYQQHPGKAPKLMIYEDSKRPSGVANPFSGSKSGNTASLTISGLQAEDEADYYCSSYAGSSTWVFGGGTKLTVLG
B18: mAb14289 (antibody, V domains shown)
VH: QVQLVQSGPEVKKPGASVKVSCKASGYTFTSYAISWVRQAPGQGLEWMGWISAYNGNTNYAQKLQGRVTMTTDTFTSTAYMELRSLRSDDTAVYYCAVPADHITFDYWGQGTLVTVSS
VL: EIVLTQSPGTLSLSPGERATLSCRASQSVSSYLAWYQQKPGQAPRLLIHGASSRATGIPDRFSGSGSGTDFTLTISRLEPEDFAVYYCQQYGSSFLTFGGGTKVEIKR
B19: mAb13458 (antibody, V domains shown)
VH: EVQLVESGGGLVQPGRSLRLSCAASGFTFDDYAMHWVRQAPGKGLEWVSGISWNSGSIGYADSVKGRFTISRDNAKNSLYLQMNSLRAEDTALYYCAKDIGITTPYWGQGTLVTVSS
VL: AIQMTQSPSSLSASVGDRVTITCRASQDIRNDLGWYQQKPGKAPKLLIYSASSLQTGVPSRFSGSGSGTDFTLTISSLHPEDFATYYCLQDYWYTWTFGQGTKVEIKR
B20: mAb13459 (antibody, V domains shown)
VH: B19 VH
VL: B19 VL with W93N, T95V

Columns and labels:
[1] = biological target: T1, SARS-COV-2 RBD extracellular domain expressed with a C-terminal mouse IgG2a Fc (SARS-CoV-2); test: Biacore SPR, mAb captured on anti-hFc, 25 C
[2] = biological target: T1, SARS-COV-2 RBD extracellular domain …; test: Biacore SPR, mAb captured on anti-hFc, 37 C
[3] = biological target: T2, SARS-CoV2 Spike ecto foldon Trimer expressed with a C-terminal myc-myc-hexahistidine (SARS-CoV-2, UniProt P0DTC2 14-1213); test: SPR Biacore, mAb captured by anti-hFc, 25C
T2 construct: extracellular domain

[4] = biological target: T2, SARS-CoV2 Spike ecto foldon Trimer …; test: SPR Biacore, mAb captured by anti-hFc, 37C

Binder | RBD mFc dimer bound at 50 nM [1] [RU] | RBD mFc dimer bound at 50 nM [2] [RU] | Spike trimer.their bound at 50 nM [3] [RU] | Spike trimer.their bound at 50 nM [4] [RU]
B1 | 136 | 192 |  | 
B2 | 320 | 415 |  | 
B3 | 297 | 337 |  | 
B4 |  |  | 378 | 495
B5 | 327 | 408 |  | 
B6 | 407 | 538 |  | 
B7 |  |  | 406 | 524
B8 | 333 | 392 |  | 
B9 |  | 339 |  | 
B10 | 349 | 422 |  | 
B11 | 403 | 482 |  | 
B12 | 291 | 370 |  | 
B13 | 304 | 416 |  | 
B14 |  |  | 469 | 631
B15 | 243 | 308 |  | 
B16 | 482 | 659 |  | 
B17 | 341 | 407 |  | 
B18 | 295 | 372 |  | 
B19 | 327 | 425 |  | 
B20 |  | 613 |  | 
